The source of these data is publication PMC10296771, “Glycosylation of H4 influenza strains with pandemic potential and susceptibilities to lung surfactant SP-D” (2023).

This assay has as its target Dodecameric human SP-D neck and carbohydrate domains with [change] and [change] mutations, biotinylated (human). Briefly: SPR.
A word on the Kd: it is the free concentration of one partner at which half of the binding sites on the other are occupied at equilibrium, for simple one-to-one binding. Consider “Hemagglutinin (H4) of A/duck/Czechoslovakia/1956 (H4N6), on whole virus (from UniProt P19696) (natural protein)”, for which the dissociation constant (Kd) is 175 nM.

Take “Hemagglutinin (H4) of A/blue-winged teal/Illinois/10OS1563/2010 (H4N6), on whole virus (natural protein)”: the dissociation constant Kd is 82 nM.

With “Hemagglutinin (H3) of A/pintail/339/1987 (H3N8), on whole virus (natural protein)”, the dissociation constant (Kd) was determined as 52.6 nM.

With “Hemagglutinin (H4) of A/blue-winged teal/Wisconsin/402/1983 (H4N6), on whole virus (natural protein)”, the dissociation constant Kd amounted to 101 nM.

In the case of “Hemagglutinin (H4) of A/swine/Missouri/A01727926/2015 (H4N6), on whole virus (natural protein)”, the dissociation constant (Kd) stood at 171 nM.
